Tests used:
Assay in all cases: FACS
[1] = molecular target: H1 FL HA A/Puerto Rico/8/1934 (influenza A virus H1N1, UniProt P03452 18-565)
[2] = molecular target: H1-PR8-dH1 (Steel et al. 2010) (influenza A virus H1N1, UniProt P03452 18-565)
[3] = molecular target: H1 mini-HA A/Puerto Rico/8/1934 (influenza A virus H1N1, UniProt P03452 18-565)
[4] = molecular target: mini-H3 cluster1 + 2 + 3 + 4 + 5 + 6 + 7-N405E (influenza A virus H3N2, UniProt Q38SQ8 18-566)

B1: CR9114 (antibody, V domains shown)
VH: QVQLVQSGAEVKKPGSSVKVSCKSSGGTSNNYAISWVRQAPGQGLDWMGGISPIFGSTAYAQKFQGRVTISADIFSNTAYMELNSLTSEDTAVYFCARHGNYYYYSGMDVWGQGTTVTVSS
VL: SYVLTQPPAVSGTPGQRVTISCSGSDSNIGRRSVNWYQQFPGTAPKLLIYSNDQRPSVVPDRFSGSKSGTSASLAISGLQSEDEAEYYCAAWDDSLKGAVFGGGTQLTVL
binding result [1]: binds | binding result [2]: no binding (tested: 5 microgram/ml) | binding result [3]: binds | binding result [4]: no binding (tested: 5 microgram/ml)

Reference: patent US20140357845A1 (published 2014)
